Compound potency records, mixed from different reports. Data source: NIAID ChemDB in PubChem.

All rows: toxicity to cultured cells; read-out: CC50

CCn is the concentration with n% toxicity to the cells. Lines come from different laboratories, so protocols vary.

CNC(=O)c1cc([N+](=O)[O-])c(N2CCOCC2)c([N+](=O)[O-])c1 ; cell line: MDCK cells ; value: 96 µM
CC(=O)OC[C@H]1O[C@@H](n2ncc(=O)[nH]c2=O)[C@H](OC(C)=O)[C@@H]1OC(C)=O ; cell line: MA-104 ; value: 14 µg/mL
O=C(Cn1c(-c2ccc3ccccc3c2)cc(-c2ccccc2)c1-c1ccco1)Nc1nc2ccccc2s1 ; cell line: HEK293T ; read by: MTT ; value: 38.32 µM
Nc1ncnc2c1ncn2[C@H]1CC[C@@H](CO)O1 ; cell line: HB611 ; read by: trypan blue ; value: >200 µg/mL
Nc1nc2ncn(CCOCP(=O)(O)O)c2c(=O)[nH]1 ; cell line: HB611 ; value: 20 µM
NC(=O)c1c[se]c([C@@H]2O[C@H](CO)[C@@H](O)[C@H]2O)n1 ; cell line: RAJI ; value: 1.6 µM
COc1ccccc1CCC(=O)NC1N=C(c2ccccc2)c2ccccc2NC1=O ; cell line: HEP-2 ; value: 5 µM
COCCN(CCOC)c1c([N+](=O)[O-])cc(C(F)(F)F)cc1[N+](=O)[O-] ; cell line: MDCK cells ; value: 139.9 µM
CC(C)c1nc(CN(C)C(=O)N[C@H](C(=O)N[C@@H](Cc2ccccc2)C[C@H](O)[C@H](Cc2ccccc2)NC(=O)OCc2cncs2)C(C)C)cs1 ; cell line: HCT-8 ; value: >250 µg/mL
Cc1cn(CCOCP(=O)(O)O)c(=O)[nH]c1=O ; cell line: HB611 ; value: >200 µM
CO[C@H]1/C=C/O[C@@]2(C)Oc3c(C)c(O)c4c(O)c(c(/C=N/N5CCN(C)CC5)c(O)c4c3C2=O)NC(=O)/C(C)=C\C=C\[C@H](C)[C@H](O)[C@@H](C)[C@@H](O)[C@@H](C)[C@H](OC(C)=O)[C@@H]1C ; cell line: RAW 264.7 ; value: 700 µg/mL
Nc1ncnc2c1ncn2C[C@@H](CO)OCP(=O)(O)O ; cell line: HB611 ; read by: trypan blue ; value: 24 µg/mL
CO[C@@H]1[C@H](O)[C@@H](COP(=O)(O)OP(=O)(O)OP(=O)(O)O)O[C@H]1n1ccc(N)nc1=O ; cell line: HepG2-5B ; read by: MTT ; value: >100 µg/mL
Nc1nc([Se]Cc2ccccc2)c2ncn([C@H]3CC[C@@H](CO)O3)c2n1 ; cell line: Human fibroblasts ; read by: MTT ; value: >5 µM
NC(=O)c1[nH]nc([C@@H]2O[C@H](CO)[C@@H](O)[C@H]2O)c1O ; cell line: MA-104 ; value: 90 µg/mL
[2H]C#C[C@]1(CO)O[C@@H](n2ccc3c(N)nc(Cl)nc32)C[C@@H]1O ; cell line: MT4-GFP ; read by: luminescence ; value: >42 µM
CC(=O)c1c(O)c(C)c(O)c(Cc2c(O)c3c(c(C(=O)/C=C/c4ccccc4)c2O)OC(C)(C)C=C3)c1O ; cell line: Akata ; read by: MTS ; value: 1.005 µM
COCCN(CCOC)c1c([N+](=O)[O-])cc(S(N)(=O)=O)cc1[N+](=O)[O-] ; cell line: MDCK cells ; value: 9.7 µM
Nc1ncnc2c1ncn2[C@@H]1C=C(CO)[C@@H](O)[C@H]1O ; cell line: MA-104 ; value: 14 µg/mL
c1ccc(Cc2cn[nH]c2C2CCN(Cc3ccccn3)CC2)cc1 ; cell line: MAGI-CCR5 ; read by: MTS ; value: >300 µM
CC(C)Cc1ccc(C(C)C(=O)NC2CCCC2)cc1 ; cell line: RAW 264.7 ; read by: resazurin / fluorescence ; value: 325 µg/mL
C/C=C\C=C\C/C=C\CCCCCCCc1cccc(O)c1O ; cell line: PC-3 ; read by: WST ; value: 4.56 µM
Cc1cn([C@H]2C[C@H](N=[N+]=[N-])[C@@H](CO)O2)c(=O)[nH]c1=O ; cell line: M0.MO ; value: 10 µg/mL
c1ccc(Cc2cn[nH]c2C2CCN(Cc3cccnc3)CC2)cc1 ; cell line: MAGI-CCR5 ; read by: MTS ; value: >300 µM
Nc1ncnc2c1ncn2[C@@H]1CC[C@@H](O)[C@H]1O ; cell line: P4 ; value: 55 µM
C/C(=C/CC[C@@H](C)[C@H]1CC[C@@]2(C)C3CCC4C(C)(C)C(=O)CC[C@@]45CC35CC[C@]12C)C(=O)O ; cell line: BEL-7402 ; read by: MTT ; value: 14.27 µM
O=c1oc2ccccc2c2c1C(c1cccnc1)c1c(c3ccccc3oc1=O)O2 ; cell line: SupT1 ; read by: MTT / absorbance ; value: >1000 µM
O=c1cnn([C@@H]2O[C@H](CO)[C@@H](O)[C@H]2O)c(=O)[nH]1 ; cell line: MA-104 ; value: 25 µg/mL
Nc1ncnc2c1ncn2C[C@@H](CO)OCP(=O)(O)O ; cell line: Primary duck hepatocytes ; value: 120 µg/mL
Nc1nc(SCc2ccc([N+](=O)[O-])cc2)c2ncn([C@H]3CC[C@@H](CO)O3)c2n1 ; cell line: Human fibroblasts ; read by: MTT ; value: >5 µM
CCCN(CCC)c1c([N+](=O)[O-])cc(C(=O)O)cc1[N+](=O)[O-] ; cell line: MDCK cells ; value: 93.1 µM
N#CC(=C(/N)Sc1ccccc1N)/C(C#N)=C(\N)Sc1ccccc1N ; cell line: Akata ; read by: MTS ; value: 7.376 µM
[2H]C(O)[C@@]1(C#C)O[C@@H](n2cnc3c(N)nc(F)nc32)C[C@@H]1O ; cell line: MT4-GFP ; read by: luminescence ; value: >42 µM
CC(C)CN(C[C@@H](O)[C@H](Cc1ccccc1)NC(=O)O[C@H]1CCOC1)S(=O)(=O)c1ccc(N)cc1 ; cell line: HCT-8 ; value: >250 µg/mL
CC1(C)CC[C@]2(C(=O)O)CC[C@]3(C)C(=CC[C@@H]4[C@@]5(C)CC[C@H](O)C(C)(C)[C@@H]5CC[C@]43C)[C@@H]2C1 ; cell line: Huh7.5.1 ; read by: MTT ; value: 89.2 µg/mL
C=C(C)[C@H]1Cc2c(ccc3c2O[C@@H]2COc4cc(OC)c(OC)cc4[C@@H]2C3=O)O1 ; cell line: Jurkat cells ; read by: luminescence ; value: >100 µM
O=C(Nc1c(F)cccc1F)NC1N=C(c2ccccc2)c2ccccc2NC1=O ; cell line: HEP-2 ; value: 9.4 µM
COc1cc(O)c2c(=O)oc3cc(O)cc(C)c3c2c1 ; cell line: HEK293T ; read by: XTT / absorbance ; value: 392.3 µM
CCCN(CCC)c1c([N+](=O)[O-])cc(C(F)(F)F)cc1[N+](=O)[O-] ; cell line: MDCK cells ; value: >80 µM
COc1ccc(C(=O)NC2N=C(c3ccccc3)c3cc(Cl)ccc3NC2=O)cc1 ; cell line: VERO ; value: 1.2 µM
Nc1ncnc2c1ncn2[C@@H]1C=C(CO)[C@@H](O)[C@H]1O ; cell line: P4 ; value: 30 µM
CC(C)=CCC[C@]1(C)C=Cc2c(O)c3c(c(CC=C(C)C)c2O1)O[C@@]12C(=C[C@H]4CC1C(C)(C)O[C@]2(C/C=C(/C)C(N)=O)C4=O)C3=O ; cell line: Jurkat cells ; read by: luminescence ; value: 0.7 µM
C[N+]1(C)CCN(c2cccc(N3CC[N+](C)(C)CC3)c2[N+](=O)[O-])CC1 ; cell line: GMK ; value: >330.4 µg/mL
CCCN(CCC)c1c([N+](=O)[O-])cc(S(N)(=O)=O)cc1[N+](=O)[O-] ; cell line: MDCK cells ; value: 3.9 µM
C[C@@]1(O)[C@H](O)[C@@H](CO)O[C@H]1n1cnc2c(N)ncnc21 ; cell line: HB110A ; read by: MTS ; value: >100 µM
Nc1ncnc2c1ncn2CCP(=O)(O)O ; cell line: HB611 ; value: >400 µM
O=C1Nc2ccccc2C(c2ccccc2)=NC1NCc1ccccc1C(F)(F)F ; cell line: VERO ; value: 30 µM
O=C1C[C@@H](c2ccc(O)cc2)Oc2cc(O)ccc21 ; cell line: Huh7.5 ; read by: WST ; value: 125 µg/mL
O=C(N[C@@H](Cc1ccccc1)C(=O)CCl)OCc1ccccc1 ; cell line: Jurkat cells ; read by: luminescence ; value: 0.6 µM
C=C(C)[C@@H]1CCC2[C@]3(CC[C@]4(C)[C@@H]([C@H](C)CC/C=C(/C)C(=O)O)CC[C@@]24C)C[C@]13CCC(=O)O ; cell line: HL-60 ; read by: MTT ; value: 2.53 µM
CN1[C@@H]2CC[C@H]1CC(OC(c1ccccc1)c1ccccc1)C2 ; cell line: Huh 7.5.1 clone 2 ; read by: MTT ; value: 26.25 µM
CC[C@@H](O)C1=C[C@@H](n2cnc3c(N)ncnc32)[C@H](O)[C@@H]1O ; cell line: P4 ; value: >68 µM
Nc1ncnc2c1ncn2[C@H]1CC[C@@H](CO)O1 ; cell line: Primary duck hepatocytes ; value: 135 µg/mL
[2H][C@@]1(O)C[C@H](n2cnc3c(N)nc(F)nc32)O[C@]1(C#C)CO ; cell line: MT4-GFP ; read by: luminescence ; value: >42 µM
CC(C)[C@@H]1NC(=O)[C@H](C)OC(=O)[C@@H](C(C)C)NC(=O)[C@@H](C(C)C)OC(=O)[C@H](C(C)C)NC(=O)[C@H](C)OC(=O)[C@@H](C(C)C)NC(=O)[C@@H](C(C)C)OC(=O)[C@H](C(C)C)NC(=O)[C@H](C)OC(=O)[C@@H](C(C)C)NC(=O)[C@@H](C(C)C)OC1=O ; cell line: Jurkat cells ; read by: luminescence ; value: 0.4 µM
c1ccc(-c2cccnc2)cc1 ; cell line: SupT1 ; read by: MTT / absorbance ; value: >1000 µM
CC(O)C\C=C/C=C\C=C\CCCCCCc1cccc(O)c1O ; cell line: PC-3 ; read by: WST ; value: 61.78 µM
[2H][C@]1(n2cnc3c(N)nc(F)nc32)C[C@H](O)[C@@](C#C)(CO)O1 ; cell line: MT4-GFP ; read by: luminescence ; value: >42 µM
O=C1C=CC(=O)c2c(O)c(Cl)c(Cl)c(O)c21 ; cell line: Jurkat cells ; read by: luminescence ; value: 0.4 µM
O=C(NC1N=C(c2ccccc2)c2cc(Cl)ccc2NC1=O)c1ccccc1[N+](=O)[O-] ; cell line: VERO ; value: 5 µM
CC1=CCC(C(C)C2=CC[C@]3(C)C(=C2C)C[C@]2(O)C=C4C=CC(=O)OC(C)(C)C4[C@H](O)CC23)OC1=O ; cell line: BEL-7402 ; read by: MTT ; value: 23.55 µM
O=C(/C=C/c1ccc(O)cc1)c1ccc(O)cc1O ; cell line: Huh7.5 ; read by: WST ; value: 11 µg/mL
Nc1ccn([C@@H]2O[C@H](CO)[C@@H](O)[C@@H]2O)c(=O)n1 ; cell line: Primary duck hepatocytes ; value: 200 µg/mL
CN[C@H]1C[C@@H]2O[C@](C)([C@H]1OC)n1c3ccccc3c3c4c(c5c6ccccc6n2c5c31)C(=O)NC4 ; cell line: Akata ; read by: MTS ; value: 0.004 µM
CCc1nccc(CN2CCC(c3[nH]ncc3Cc3ccccc3)CC2)n1 ; cell line: MAGI-CCR5 ; read by: MTS ; value: >100 µM
CC1(C)C=Cc2c(ccc3c2OC[C@@H](c2ccc(O)cc2O)C3)O1 ; cell line: Huh7.5 ; read by: WST ; value: 22.7 µg/mL
Cc1cc(N2CC[N+](C)(C)CC2)c([N+](=O)[O-])c(N2CC[N+](C)(C)CC2)c1 ; cell line: L929 ; value: >322.9 µg/mL
COC(=O)C[C@H]1C(C)(C)[C@H](OC(C)=O)[C@H]2C(=O)[C@]1(C)[C@H]1CC[C@]3(C)C(=CC(=O)O[C@H]3c3ccoc3)[C@]13O[C@H]23 ; cell line: SupT1 ; value: 78.45 µM
NS(=O)(=O)c1cc([N+](=O)[O-])c(N2COC2)c([N+](=O)[O-])c1 ; cell line: MDCK cells ; value: 25.5 µM
[N-]=[N+]=Nc1ccc(CNc2ncnc3c2ncn3[C@H]2CC[C@@H](CO)O2)cc1 ; cell line: Human fibroblasts ; read by: MTT ; value: >5 µM
C=C[C@@H](C1=CC(=O)C(OC)=C(OC)C1=O)c1ccccc1 ; cell line: Jurkat cells ; read by: luminescence ; value: 2.3 µM
O=[N+]([O-])c1ccc(N2CC[N+]3(CC2)CC[N+]2(CCN(c4ccc([N+](=O)[O-])c5nonc45)CC2)CC3)c2nonc12 ; cell line: GMK ; value: >320.8 µg/mL
Cn1c2ccccc2c2c3c(c4c5ccccc5n(CCC#N)c4c21)CNC3=O ; cell line: Akata ; value: 0.41 µM
Nc1nc(N)c2ncn(CCOCP(=O)(O)O)c2n1 ; cell line: HB611 ; read by: trypan blue ; value: 35 µg/mL
Nc1nc2c(ncn2C[C@H](CO)OCP(=O)(O)O)c(=O)[nH]1 ; cell line: HB611 ; value: <200 µM
C#C[C@H](O)C1=C[C@@H](n2cnc3c(N)ncnc32)[C@H](O)[C@@H]1O ; cell line: P4 ; value: >104 µM
CCc1cc(CN2CCC(c3[nH]ncc3Cc3ccccc3)CC2)[nH]n1 ; cell line: MAGI-CCR5 ; read by: MTS ; value: >300 µM
NC(=O)c1csc([C@@H]2O[C@H](CO)[C@@H](O)[C@H]2O)n1 ; cell line: RAJI ; value: 8.2 µM
Cc1cc(Cl)c([N+](=O)[O-])c(N2CC[N+]3(CC2)CC[N+]2(CCN(c4nc(C)cc(Cl)c4[N+](=O)[O-])CC2)CC3)n1 ; cell line: L929 ; value: >313.3 µg/mL
N#CCCn1c2ccccc2c2c3c(c4c5ccccc5[nH]c4c21)C(=O)NC3 ; cell line: Akata ; value: 0.61 µM
Cc1nc(C2CCCCCC2)c([N+](=O)[O-])c(N2CC[N+]3(CC2)CC[N+]2(CCN(c4nc(C)nc(C5CCCCCC5)c4[N+](=O)[O-])CC2)CC3)n1 ; cell line: K562 ; value: >261.2 µg/mL
[2H][C@@]1(O)C[C@H](n2ccc3c(N)nc(Cl)nc32)O[C@]1(C#C)CO ; cell line: MT4-GFP ; read by: luminescence ; value: >42 µM
O=C(CCCl)NN1CC[N+]2(CC1)CC[N+]1(CCN(NC(=O)CCCl)CC1)CC2 ; cell line: K562 ; value: >393.5 µg/mL
Cc1cn([C@H]2C=C[C@@H](CO)O2)c(=O)[nH]c1=O ; cell line: Primary duck hepatocytes ; value: 75 µg/mL
Nc1nc2c(ncn2[C@H]2CO[C@@H](CO)O2)c(=O)[nH]1 ; cell line: CBMC ; value: >500 µM
Cc1nc2cccnc2n1C1C[C@H]2CC[C@H](C1)N2CC[C@H](C(=O)NCc1ccc(F)cc1)c1ccccc1 ; cell line: CHO ; value: 0.0144 µM
O=c1ccn([C@H]2C[C@H](F)[C@@H](CO)O2)c(=O)[nH]1 ; cell line: K562 ; value: >1000 µM
CCCNc1c([N+](=O)[O-])cc(C(F)(F)F)cc1[N+](=O)[O-] ; cell line: MDCK cells ; value: >80 µM
Cc1cn([C@H]2C[C@H](F)[C@@H](CO)O2)c(=O)[nH]c1=O ; cell line: REH ; value: 160 µM
Cc1ccc(-c2ccc3c(c2)C=C(C(=O)Nc2ccc(C[N+](C)(C)C4CCOCC4)cc2)CCC3)cc1 ; cell line: MAGI-CCR5 ; value: >10 µM
NC(=O)C(c1ccccc1)(c1ccccc1)C1CCCN(CCc2ccc3c(c2)CCO3)C1 ; cell line: PM1 ; value: 47 µM